Pooled drug test results. Numbers come from NIAID ChemDB, via PubChem.

All rows: growth or infection tests; agent: Cryptococcus neoformans; read-out: MIC

Blank or dashed fields: not listed here. Conditions beyond the fields shown may differ between rows. Two numbers with a dash give a range or band.

structure,strain or isolate,result
O=C1/C(=C/c2ccc(Cl)cc2)COc2ccccc21,93/V,12.5 µg/mL
C[C@@H](N1CCN(c2ccc(OC(F)(F)C(F)F)cc2)C1=O)C(O)(Cn1cncn1)c1ccc(F)cc1F,TIMM1855,0.016 µg/mL
O=C1/C(=C/c2ccc3ccccc3c2)CSc2ccc(Cl)cc21,25,50 µg/mL
Cc1ccc(-c2cc(-c3ccc(Cl)cc3)nc(/N=C3\C(=O)N(CN(C)C)c4ccc(Cl)cc43)n2)cc1,,39.06 µg/mL
CCC/C=C/C=C/C=C/C(=O)OCC1O[C@@H](OC2C(CO)O[C@]3(OCc4cc(O)cc(O)c43)[C@H](O)[C@H]2OC(=O)/C=C/C=C/CC(O)/C=C/C=C/C=C/CCC)[C@H](O)[C@@H](O)[C@H]1O,IAM 4514,>100 µg/mL
CC(C)(C)C1CCC(CN2C3=NC[C@@H](CC4CCCCC4)N3C[C@H]2C2CCCCC2)CC1,ATCC 32045,4–8 µg/mL
CCCCC(Cn1ccnc1)c1ccccc1Cl,,100 µg/mL
Cc1ccc(-c2cc(-c3ccc(Cl)cc3)nc(/N=C3\C(=O)N(CN(C)C)c4ccc(Br)cc43)n2)cc1,,9.76 µg/mL
CCC(C)n1ncn(-c2ccc(N3CCN(c4ccc(OC[C@H]5CO[C@](Cn6cncn6)(c6ccc(Cl)cc6Cl)O5)cc4)CC3)cc2)c1=O,DUMC 251.86,0.016 µg/mL
C[C@@H](n1ccn(-c2ccc(C(F)(F)F)cc2)c1=O)C(O)(Cn1cncn1)c1ccc(F)cc1F,TIMM1740,0.03 µg/mL
C[C@@H]1CCC2(OC1)OC1CC3C4C[C@H](OC5O[C@@H](CO)[C@H](O)[C@@H](O)[C@@H]5O)[C@H]5C[C@@H](OC6O[C@H](CO)[C@@H](O)[C@H](O)[C@H]6O)CC[C@]5(C)C4CC[C@]3(C)C1[C@@H]2C,ATCC 90113,20 µg/mL
C[C@@H](n1ccn(-c2ccc(OC(F)(F)C(F)F)cc2)c1=O)C(O)(Cn1cncn1)c1ccc(F)cc1F,TIMM1740,0.016 µg/mL
Cc1ccc(-c2cc(-c3ccc(Cl)cc3)nc(/N=C3\C(=O)N(CN(C)C)c4ccccc43)n2)cc1,,19.53 µg/mL
C[C@@H](N1CCN(c2ccc(OC(F)(F)F)cc2)C1=O)C(O)(Cn1cncn1)c1ccc(F)cc1F,TIMM1740,0.03 µg/mL
CC(Cn1ccnc1)c1ccc(Cl)cc1,,10 µg/mL
Cc1ccc(/C=C2\CSc3ccccc3C2=O)cc1,93/V,50 µg/mL
C[C@@H](n1ccn(-c2ccc(OCC(F)(F)C(F)F)cc2)c1=O)C(O)(Cn1cncn1)c1ccccc1F,TIMM1855,0.13 µg/mL
CCCCC(Cn1ccnc1)c1ccc(F)cc1,,<1 µg/mL
O=C1/C(=C/c2ccccc2[N+](=O)[O-])CCc2ccccc21,Farwania,100 µg/mL
COc1cccc2c1C(=O)c1c(O)c3c(c(O)c1C2=O)C[C@@](O)(C(=O)CO)C[C@@H]3O[C@H]1C[C@H](N)[C@@H](O)[C@H](C)O1,Clinical isolate (capsule-negative),>100 µM
Cc1ccc(-c2cc(-c3ccc(Cl)cc3)nc(/N=C3\C(=O)N(CN4CCCCC4)c4ccc(Br)cc43)n2)cc1,,19.53 µg/mL
COc1ccc2c(c1)C(=O)/C(=C/c1ccccc1OC)CO2,25,3 µg/mL
COC(=O)[C@H]1[C@@H]2C[C@@H](O[C@@H]3O[C@H](C)[C@@H](O)[C@H](N)[C@@H]3O)/C=C/C=C/C=C/C=C/C=C/C=C/C=C/[C@H](C)[C@@H](O)[C@H](C)[C@H](C)OC(=O)C[C@H](O)C[C@H](O)[C@@H](O)CC[C@H](O)C[C@H](O)C[C@](O)(C[C@@H]1O)O2,NCPF 3379,0.98 µM
CC(C)(C)C1CCC(CN2C3=NC[C@H](CC4CCCCC4)N3C[C@@H]2C2CCCCC2)CC1,ATCC 32045,4–8 µg/mL
CC[C@@]1(O)C[C@H](O[C@H]2C[C@H](N(C)C)[C@H](O[C@H]3C[C@H](O)[C@H](O[C@H]4CCC(=O)[C@H](C)O4)[C@H](C)O3)[C@H](C)O2)c2c(cc3c(c2O)C(=O)c2c(O)cccc2C3=O)[C@H]1C(=O)OC,Clinical isolate (capsule-negative),>100 µM
CCC(C)n1ncn(-c2ccc(N3CCN(c4ccc(OC[C@H]5CO[C@](Cn6cncn6)(c6ccc(Cl)cc6Cl)O5)cc4)CC3)cc2)c1=O,Isolate 95-103,0.25 µg/mL
CCCCCCC(Cn1ccnc1)c1ccc(Cl)cc1Cl,,<1 µg/mL
COc1ccc2c(c1)C(=O)/C(=C/c1ccc3c(c1)CC3)CO2,25,25 µg/mL
C[C@@H](N1CCN(c2ccc(OCC(F)(F)C(F)F)cc2)C1=O)C(O)(Cn1cncn1)c1ccc(F)cc1F,TIMM1740,0.016 µg/mL
COc1ccc(/C=C2\CS(=O)c3ccccc3C2=O)cc1,Farwania,50 µg/mL
C[C@H]1N(C(=O)c2ccc(C(F)(F)F)cc2)CCO[C@@]1(Cn1cncn1)c1ccc(F)cc1F,89-127,0.5 µg/mL
CCCCCCC(Cn1ccnc1)c1c(Cl)cccc1Cl,,<1 µg/mL
COc1ccccc1/C=C1\CSc2ccc(Cl)cc2C1=O,Farwania,12.5 µg/mL
CCCCCCCC(Cn1ccnc1)c1ccccc1Br,,<1 µg/mL
CC(C)(C)C1CCC(CN2C3=NC[C@@H](C4CCCCC4)N3C[C@@H]2C2CCCCC2)CC1,ATCC 32045,4–8 µg/mL
CCCC(Cn1ccnc1)c1ccccc1Cl,,100 µg/mL
O=C1/C(=C/c2ccc3ccccc3c2)CSc2ccccc21,93/V,25 µg/mL
C1CCC(C[C@H]2CN3C(=NC[C@@H]3C3CCCCC3)N2CCC23CC4CC(CC(C4)C2)C3)CC1,ATCC 32045,16–32 µg/mL

The last 5 rows once more:

structure | strain or isolate | result
CCCCCCCC(Cn1ccnc1)c1ccccc1Br |  | <1 µg/mL
CC(C)(C)C1CCC(CN2C3=NC[C@@H](C4CCCCC4)N3C[C@@H]2C2CCCCC2)CC1 | ATCC 32045 | 4–8 µg/mL
CCCC(Cn1ccnc1)c1ccccc1Cl |  | 100 µg/mL
O=C1/C(=C/c2ccc3ccccc3c2)CSc2ccccc21 | 93/V | 25 µg/mL
C1CCC(C[C@H]2CN3C(=NC[C@@H]3C3CCCCC3)N2CCC23CC4CC(CC(C4)C2)C3)CC1 | ATCC 32045 | 16–32 µg/mL